Laboratory results as given in patent publication US9301999B2 (priority 2009, dated 2016).

System: anthrax lethal toxin
Conditions: Day 42 serum, macrophage assay, serum dilutions 1:32 through 1:128, p=0.05 ANOVA

Substance: cholera toxin
- lethal toxin neutralizing antibody response in serum: did not induce lethal toxin neutralizing responses greater than those detected in mice immunized with rPA alone
